# Fitness effects across NS2B and the NS3 protease domain of Zika virus

From the data files of Ni et al. 2025, doi:10.1038/s41467-025-63602-z.

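Mutant virus pools were grown in human Huh-7.5 cells. Deep sequencing gave the change in frequency of each mutant relative to wild type, averaged over three replicate libraries (two for positions 207-308). The study looked for pockets that tolerate few changes, as a guide for inhibitor design.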

The scanned region of Zika virus MR766 is shown below (positions 1-308): NS2B is 2-131, NS3 begins at position 132.
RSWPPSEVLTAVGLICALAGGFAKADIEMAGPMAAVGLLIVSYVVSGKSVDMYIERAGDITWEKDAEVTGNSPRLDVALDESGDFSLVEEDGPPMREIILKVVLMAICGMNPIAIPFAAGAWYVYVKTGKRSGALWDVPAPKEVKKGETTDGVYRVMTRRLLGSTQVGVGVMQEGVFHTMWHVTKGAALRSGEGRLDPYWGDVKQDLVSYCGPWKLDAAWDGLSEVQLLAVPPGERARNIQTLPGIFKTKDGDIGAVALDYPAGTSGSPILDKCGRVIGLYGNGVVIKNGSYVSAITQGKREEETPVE

The number is log2 of the effect relative to wild type; negative values mean reduced growth, higher values better tolerance. Each entry names the wild-type residue, its position and the residue put in its place.

| # | mutation | effect (log2) |
|---|---|---|
| 1 | T149V | -1.47 |
| 2 | E174F | -4.29 |
| 3 | V156* | -6.31 |
| 4 | E7N | -0.90 |
| 5 | D272W | -2.88 |
| 6 | V138C | -5.54 |
| 7 | A295W | -4.97 |
| 8 | I113C | -1.52 |
| 9 | A140N | -4.94 |
| 10 | R195* | -8.11 |
| 11 | L135C | -6.85 |
| 12 | G92N | -6.37 |
| 13 | Y199K | -1.00 |
| 14 | S164N | -0.10 |
| 15 | L280W | -5.24 |
| 16 | A188Q | -4.71 |
| 17 | G194* | -7.48 |
| 18 | A119L | -2.64 |
| 19 | L38H | -4.85 |
| 20 | D272G | -2.00 |
| 21 | V103W | -3.74 |
| 22 | K273L | -2.63 |
| 23 | A188R | -5.70 |
| 24 | G152S | -7.26 |
| 25 | R96T | -2.92 |
| 26 | P269M | -4.33 |
| 27 | P269I | -4.34 |
| 28 | A121Y | -4.90 |
| 29 | A230S | -6.12 |
| 30 | R190V | -5.14 |
| 31 | V169F | -5.68 |
| 32 | S72W | -6.50 |
| 33 | S49N | -0.64 |
| 34 | A188D | -5.06 |
| 35 | Q173A | -0.21 |
| 36 | S82K | -6.70 |
| 37 | K204T | -8.02 |
| 38 | G58* | -7.60 |
| 39 | P244W | -4.30 |
| 40 | D76A | -0.03 |
| 41 | V36* | -7.89 |
| 42 | V126K | -2.35 |
| 43 | P262W | -4.49 |
| 44 | D202S | 0.49 |
| 45 | R276A | -2.00 |
| 46 | L161D | -4.72 |
| 47 | L87D | -5.85 |
| 48 | Y210H | -5.84 |
| 49 | P213V | -5.58 |
| 50 | P141C | -4.49 |
| 51 | K273H | -1.34 |
| 52 | D253* | -6.90 |
| 53 | A118R | -7.15 |
| 54 | L216T | -7.25 |
| 55 | R56M | -3.53 |
| 56 | A114V | -1.60 |
| 57 | E302I | 1.77 |
| 58 | P93N | -5.62 |
| 59 | L79E | -5.97 |
| 60 | P262L | -4.88 |
| 61 | A263H | -4.94 |
| 62 | H178L | -6.68 |
| 63 | G252A | -1.53 |
| 64 | Q166R | -7.06 |
| 65 | Y154R | -6.71 |
| 66 | G13H | -5.74 |
| 67 | E97R | -7.01 |
| 68 | E143F | -0.69 |

The first 8 entries again:

{"mutation": "T149V", "effect (log2)": -1.47}
{"mutation": "E174F", "effect (log2)": -4.29}
{"mutation": "V156*", "effect (log2)": -6.31}
{"mutation": "E7N", "effect (log2)": -0.90}
{"mutation": "D272W", "effect (log2)": -2.88}
{"mutation": "V138C", "effect (log2)": -5.54}
{"mutation": "A295W", "effect (log2)": -4.97}
{"mutation": "I113C", "effect (log2)": -1.52}

Values above 0 are not proof of better growth: six high scorers were tested one by one, five grew less well than wild type and one about as well. Position 1 still belongs to NS2A. In the paper, -1 or higher counts as tolerated. An asterisk is a stop codon; stop codons read about -7, near the floor of the assay. The region was split into three libraries (1-103, 104-206, 207-308).